# From patent US10485854B2, “Method of reducing biofilms” (Lysando AG, priority 2010, dated 2019)
# Where two headings read alike, the source gives them in different places.
# B1: (POLY)^2-gp188: fusion protein SEQ ID NO: 40: endolysin SEQ ID NO: 2 with peptide SEQ ID NO: 21 (protein)
# chain: MGSKRKKRKKRKRSKRKKRKKRKNFRTKNGYRDLQALVKELGLYTGQIDGVWGKGTSSSTETLLRGYAEVVGKNTGGIGLPTTSDASGYNVITALQRNLAFLGLYSLTVDGIWGNGTLSGLDKAFEVYKERYRTPTYDIAWSGKVSPAFTAKVKDWCGVHVPNHRAPHWLMACMAFETGQTFSPSIKNAAGSEAYGLIQFMSPAANDLNVPLSVIRSMDQLTQLDLVFKYFEMWMKRGKRYTQLEDFYLTIFHPASVGKKADEVLFLQGSKAYLQNKGFDVDKDGKITLGEISSTLYTTYYKGLLPENRHVISY
# modifications: (POLY)2-gp188
# B2: ELgp188: unmodified modular endolysin of Pseudomonas aeruginosa phage EL, SEQ ID NO: 2 (protein)
# chain: MNFRTKNGYRDLQALVKELGLYTGQIDGVWGKGTSSSTETLLRGYAEVVGKNTGGIGLPTTSDASGYNVITALQRNLAFLGLYSLTVDGIWGNGTLSGLDKAFEVYKERYRTPTYDIAWSGKVSPAFTAKVKDWCGVHVPNHRAPHWLMACMAFETGQTFSPSIKNAAGSEAYGLIQFMSPAANDLNVPLSVIRSMDQLTQLDLVFKYFEMWMKRGKRYTQLEDFYLTIFHPASVGKKADEVLFLQGSKAYLQNKGFDVDKDGKITLGEISSTLYTTYYKGLLPENRHVISY
# modifications: ELgp188
# Key:
# [1] = test system: P. aeruginosa PAO1p cells; assay: Antibacterial activity, 1 hour incubation with 100 μg/ml protein, residual colony count; conditions: exponentially growing cells, undialyzed protein 100 μg/ml, room temperature (Table 6)
# [2] = test system: P. aeruginosa PAO1p; format: cell-based, Pseudomonas aeruginosa; conditions: no endolysin
# [3] = test system: P. aeruginosa Br667; format: cell-based, Pseudomonas aeruginosa; conditions: 0.5 mM EDTA, no endolysin
# [4] = test system: Salmonella typhimurium LT2; format: cell-based; conditions: 0.5 mM EDTA, no endolysin
# [5] = test system: Burkholderia pseudomallei; format: cell-based; conditions: 0.5 mM EDTA, no endolysin
molecule,measurement,setting,value
"phiKZgp144: unmodified modular endolysin of Pseudomonas aeruginosa phage φKZ, SEQ ID NO: 1 [reference compound]",antibacterial activity in logarithmic units (log10N0/Ni),[1],0.00 ± 0.06 log
"O=C([O-])CN(CCN(CC(=O)[O-])CC(=O)O)CC(=O)O.[Na+].[Na+] [EDTA, reference compound]",antibacterial activity as the relative inactivation in logarithmic units (log10N0/Ni),"[2]; 0.5 mM EDTA, 30 minutes (Table 10)",0.146 +/− 0.002 logarithmic units
same,antibacterial activity as the relative inactivation in logarithmic units (log10N0/Ni),"[2]; 0.5 mM EDTA, 30 minutes (Table 12)",0.330 +/− 0.146 logarithmic units
same,antibacterial activity as the relative inactivation in logarithmic units (log10N0/Ni),"[2]; 0.5 mM EDTA, 30 minutes (Table 15)",0.130 +/− 0.023 logarithmic units
same,antibacterial activity as the relative inactivation in logarithmic units (log10N0/Ni),"[2]; 0.05 mM EDTA-Na2, 30 minutes (Table 17)",0.028 +/− 0.008 logarithmic units
same,antibacterial activity as the relative inactivation in logarithmic units (log10N0/Ni),"[2]; 0.5 mM EDTA-Na2, 30 minutes (Table 17)",0.130 +/− 0.023 logarithmic units
same,antibacterial activity as the relative inactivation in logarithmic units (log10N0/Ni),"[2]; 10 mM EDTA-Na2, 30 minutes (Table 17)",1.827 +/− 0.052 logarithmic units
same,antibacterial activity as the relative inactivation in logarithmic units (log10N0/Ni),[3]; 30 minutes (Table 10),0.223 +/− 0.038 logarithmic units
same,antibacterial activity as the relative inactivation in logarithmic units (log10N0/Ni),[3]; 30 minutes (Table 12),0.003 +/− 0.051 logarithmic units
same,antibacterial activity as the relative inactivation in logarithmic units (log10N0/Ni),[3]; 30 minutes (Table 15),0.031 +/− 0.023 logarithmic units
same,antibacterial activity as the relative inactivation in logarithmic units (log10N0/Ni),[4]; 30 minutes (Table 10),0.104 +/− 0.049 logarithmic units
same,antibacterial activity as the relative inactivation in logarithmic units (log10N0/Ni),[4]; 30 minutes (Table 15),0.054 +/− 0.048 logarithmic units
same,antibacterial activity as the relative inactivation in logarithmic units (log10N0/Ni),[5]; 30 minutes (Table 12),0.206 +/− 0.151 logarithmic units
same,antibacterial activity as the relative inactivation in logarithmic units (log10N0/Ni),[5]; 30 minutes (Table 15),0.220 +/− 0.081 logarithmic units
B1,antibacterial activity in logarithmic units (log10N0/Ni),[1],2.0 ± 0.2 log
B2,antibacterial activity in logarithmic units (log10N0/Ni),[1],0.05 ± 0.06 log
